In PMC9457600, “Synthesis, Leishmanicidal, Trypanocidal, Antiproliferative Assay and Apoptotic Induction of (2-Phenoxypyridin-3-yl)naphthalene-1(2H)-one Derivatives” (Molecules, 2022):

What was measured:
CCRF-CEM = test: MTS antiproliferative assay CCRF-CEM; type: cell-based, human; details: average IC50 of non-cancer cell line / IC50 of cancer cell line
Text: (§1) The cell lines used were acquired from the American Type Culture Collection (ATCC), CCRF-CEM (T lymphoblastic leukemia), K562 ([…]), U2OS (osteosarcoma), HCT116 (colon carcinoma), A549 (lung adenocarcinoma) and HCT116p53−/− (HCT116 cell line mutated in p53) Horizon Discovery Ltd., (Waterbeach, Cambridge, United Kingdom).
(§2) In our laboratory, IMTM, we generated the daunorubicin-resistant subline of CCRF-CEM cells (CEM-DNR bulk) and paclitaxel-resistant subline K562-TAX, as described previously. […] Both ABC transporters are involved in drug resistance. As a control, human fibroblasts MRC-5 and BJ cell lines were used. […] Adherent cells were passaged using PBS containing 0.25% trypsin plus 0.01% EDTA (ethylenediamine tetraacetic acid) every 2–3 days.
(§3) The antiproliferative activity of compounds was determined using a standard 3-(4,5-dimethylthiazol-2yl)-5-(3-carboxymethoxyphenyl)-2-(4-sulfophenyl)-2H-tetrazolium (MTS) reduction assay on a robotic high throughput screening platform (HighResBio, Boston, MA, USA) following treatment of cells for 3–7 days. The IC50 values were calculated from the appropriate dose–response curves with Dotmatics software (San Diego, CA, USA).

K562 = test: MTS antiproliferative assay K562; type: cell-based, human; details: average IC50 of non-cancer cell line / IC50 of cancer cell line
Text: as §1, §2, §3

K562-TAX = test: MTS antiproliferative assay K562-TAX; type: cell-based, human; details: average IC50 of non-cancer cell line / IC50 of cancer cell line
Text: as §1, §2, §3

A549 = test: MTS antiproliferative assay A549; type: cell-based, human; details: average IC50 of non-cancer cell line / IC50 of cancer cell line
Text: as §1, §2, §3

U2OS = test: MTS antiproliferative assay U2OS; type: cell-based, human; details: average IC50 of non-cancer cell line / IC50 of cancer cell line
Text: as §1, §2, §3

[1] = tested on: promastigotes of Leishmania (V.) braziliensis strain MHOM/CO/87/UA301; test: MTT viability of L. braziliensis promastigotes; type: cell-based;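 note: promastigote proliferation in 96-well plates, MTT reduction read at 570 nm, EC50 derived from growth curves, cytotoxicity CC50 likewise by MTT in BMDM and VERO cells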

| Compound | therapeutic index (TI) CCRF-CEM (CCRF-CEM) | therapeutic index (TI) K562 (K562) | therapeutic index (TI) K562-TAX (K562-TAX) | therapeutic index (TI) A549 (A549) | therapeutic index (TI) U2OS (U2OS) | times more active against the parasites than on the host cells, versus miltefosine SI ([1]; BMDM) [times] | times more active against the parasites than on the host cells, versus miltefosine SI ([1]; VERO) |
| --- | --- | --- | --- | --- | --- | --- | --- |
| COc1ccc2c(c1)CC/C(=C\c1cccnc1Oc1ccc(Br)cc1)C2=O [Compound 18, (E)-2-{[2-(4-Bromophenoxy)pyridin-3-yl]methylene}-3,4-dihydro-6-methoxynaphthalen-1(2H)-one] | 8.4 | 11.5 | 2.8 | 5.2 | 6.9 | – | – |
| COc1ccc2c(c1)C(=O)/C(=C/c1cccnc1Oc1ccc(Br)cc1)CC2 [Compound 19, (E)-2-{[2-(4-Bromophenoxy)pyridin-3-yl]methylene}-3,4-dihydro-7-methoxynaphthalen-1(2H)-one] | – | – | 12 | – | – | – | – |
| COc1ccc2c(c1)CC/C(=C\c1cccnc1Oc1ccc(Cl)cc1)C2=O [Compound 22, (E)-2-{[2-(4-Chlorophenoxy)pyridin-3-yl]methylene}-3,4-dihydro-6-methoxynaphthalen-1(2H)-one] | 9.6 | 12.8 | – | 5.1 | 6.2 | – | – |
| COc1ccc2c(c1)C(=O)/C(=C/c1cccnc1Oc1ccc(Cl)cc1)CC2 [Compound 23, (E)-2-{[2-(4-Chlorophenoxy)pyridin-3-yl]methylene}-3,4-dihydro-7-methoxynaphthalen-1(2H)-one] | – | – | 3.1 | – | – | ≥ 35.1 | at least 3.5 times |
| COc1ccc2c(c1)C(=O)/C(=C/c1cccnc1Oc1ccc(F)cc1)CC2 [Compound 15, (E)-2-{[2-(4-Fluorophenoxy)pyridin-3-yl]methylene}-3,4-dihydro-7-methoxynaphthalen-1(2H)-one] | – | – | 2.5 | – | – | – | – |
| COc1ccc2c(c1)CC/C(=C\c1cccnc1Oc1ccc(F)cc1)C2=O [Compound 14, (E)-2-{[2-(4-Fluorophenoxy)pyridin-3-yl]methylene}-3,4-dihydro-6-methoxynaphthalen-1(2H)-one] | – | 8.7 | – | – | – | – | – |
